Measurements as given in the CheMixHub ionic liquid set.

Test: xn = mol fraction of the nth substance listed

O=S(=O)(F)[N-]S(=O)(=O)C(F)(F)F.[K+] + O=S(=O)(F)[N-]S(=O)(=O)F.[K+]
100 kPa, x2 = 0.55
Settings	electrical conductivity [S/m]	viscosity [mPa·s]
342.1 K	–	1727 ± 270
353.8 K	0.23 ± 0.02	–
390.8 K	–	86.2 ± 3
402.7 K	–	56.9 ± 1.5
412.1 K	2.67 ± 0.27	–

CCC[N+]1(C)CCCC1.O=S(=O)(F)[N-]S(=O)(=O)F + O=S(=O)(F)[N-]S(=O)(=O)F.[K+]
101 kPa
Settings	electrical conductivity [S/m]	viscosity [mPa·s]
258 K, x2 = 0.2	0.063 ± 0.001	–
273 K, x2 = 0	0.35 ± 0.01	103 ± 8
273 K, x2 = 0.1	0.25 ± 0.01	156 ± 18
278 K, x2 = 0	0.43 ± 0.01	83.5 ± 4.4
283 K, x2 = 0	0.52 ± 0.01	68.5 ± 2.5
288 K, x2 = 0.25	0.26 ± 0.01	153 ± 17
293 K, x2 = 0.15	0.48 ± 0.01	80 ± 3.9
303 K, x2 = 0.05	0.85 ± 0.02	39.9 ± 1.2
308 K, x2 = 0.15	0.78 ± 0.02	46.5 ± 1.4
313 K, x2 = 0.25	0.68 ± 0.01	55.5 ± 1.3
318 K, x2 = 0	1.4 ± 0.03	22.9 ± 0.7
323 K, x2 = 0	1.56 ± 0.03	20.2 ± 0.6
323 K, x2 = 0.05	1.42 ± 0.03	22.5 ± 0.7
333 K, x2 = 0	1.92 ± 0.04	15.9 ± 0.5
333 K, x2 = 0.2	1.33 ± 0.03	25.1 ± 0.8
343 K, x2 = 0.25	1.5 ± 0.03	22.2 ± 0.7
353 K, x2 = 0.1	2.42 ± 0.05	12.7 ± 0.4
353 K, x2 = 0.25	1.86 ± 0.04	17.6 ± 0.5
358 K, x2 = 0.05	2.77 ± 0.06	10.3 ± 0.3
358 K, x2 = 0.15	2.45 ± 0.05	12.5 ± 0.4
368 K, x2 = 0.15	2.9 ± 0.06	10.4 ± 0.3
378 K, x2 = 0.05	3.77 ± 0.08	7.4 ± 0.2
378 K, x2 = 0.1	3.6 ± 0.07	8.1 ± 0.2
383 K, x2 = 0.25	3.12 ± 0.06	9.6 ± 0.3
388 K, x2 = 0.25	3.36 ± 0.07	8.8 ± 0.3

± gives the uncertainty stated by the source.
